From patent publication US4803223A (priority 1985, dated 1989) come the findings set out here.

For assay [1], the system named is Walker carcinosarcoma 256. Put plainly: Walker carcinosarcoma 256 ascites tumor in rats (increase of lifespan). The format is in vivo, Sprague-Dawley rats (male). Particulars: for T/C (%): Table 1, Walker carcinosarcoma 256 (W); for T/C / survivors: over one month.
The subject of the next assay is P388 leukemia. Put plainly: P388 lymphatic leukemia in mice (increase of lifespan). The format is in vivo, CDF1-strain mice (male). As to conditions: for T/C: i.p., daily for 9 days, 30 days observation; for T/C (%): Table 1, P388 leukemia (P).
For the next assay, the system named is ascites hepatoma AH130. Put plainly: Ascites hepatoma AH130 in rats, iv/iv (increase of lifespan). Particulars: 25 mg/kg, i.v., 60 days.
For the next assay, the system named is M5076 ovarian tumor. Put plainly: M5076 ovarian cancer in mice (increase of lifespan). Particulars: i.p., five times at intervals of 4 days, 60 days.
In assay [2] the test system is Ehrlich ascites carcinoma. Put plainly: Ehrlich ascites carcinoma in mice (increase of lifespan). The assay is classed as in vivo, mice (CD2F1-strain Swiss, female). As to conditions: for T/C / survivors: 60 days observation; for T/C (%): Table 1, Ehrlich carcinoma (E).
For another assay, the system named is B16 melanoma. Put plainly: B16 melanoma in mice (increase of lifespan). Particulars: i.p., daily for 9 days, 60 days observation.
[3] abbreviates: 10 mg/kg, i.p., 5 consecutive days.
[4] abbreviates: 25 mg/kg, i.p., 5 consecutive days.
[5] abbreviates: 50 mg/kg, i.p., 5 consecutive days.
Where [6] appears, read: 50 mg/kg, i.p., daily for 9 days.
The mark [7] stands for this setting: 100 mg/kg, i.p., daily for 9 days.

Structures are written as SMILES.

For the compound `O=C(NCCI)Nc1cccc(N(CCCl)CCCl)c1`, in assay [1] (50 mg/Kg), the “T/C (%)” value is 205%.
Turning to `O=C(NCCCl)Nc1ccc(N(CCCl)CCCl)cc1`, the T/C result is “more than 361%” in assay [1] (setting [3]); “more than 361%” in assay [1] (setting [4]); “more than 361%” in assay [1] (setting [5]); 167% in the assay on P388 leukemia (25 mg/kg); 189% in the assay with P388 leukemia (50 mg/kg); “more than 353%” in the assay with ascites hepatoma AH130 (seven times, control 17.0 days). The T/C entry with M5076 ovarian tumor (100 mg/kg) is “more than 214%”; in the assay on M5076 ovarian tumor (200 mg/kg) it was “more than 214%”; in assay [2] (setting [6]) it was “more than 392%”; in assay [2] (setting [7]), 294%; in the assay on B16 melanoma (50 mg/kg), 171%; with B16 melanoma (100 mg/kg), 177%. Moreover, the survivors result in assay [1] (setting [3]) is recorded as “all six rats survived”; in assay [1] (setting [4]), “all six rats survived”; in assay [1] (setting [5]) it was “all six rats survived”; with ascites hepatoma AH130 (seven times (days 3, 5, 7, 11, 15, 20, 24)) it was “four rats out of six survived”; in the assay on M5076 ovarian tumor (100 mg/kg), “seven mice survived out of ten”; in the assay with M5076 ovarian tumor (200 mg/kg), “five mice survived out of ten”. Further, the survivors result is reported as “three mice survived out of six” in assay [2] (setting [6]) and “two mice out of six survived” in assay [2] (setting [7]). In addition, in assay [1] (10, 50 and 25 mg/kg, i.p., 5 consecutive days), the “cure of Walker carcinosarcoma 256” value is listed as “completely cured”. For the same compound, in assay [2] (100 mg/kg, i.p., daily for 9 days, control 15.3 days), the “mean survival time (MST)” value stood at 45.0 days.
Consider `O=C(NCCBr)Nc1ccc(N(CCCl)CCCl)cc1`, for which the entries for the “T/C (%)” value (in the assay with P388 leukemia (25 mg/Kg); in the assay with P388 leukemia (50 mg/Kg); in assay [2] (50 mg/Kg)) were 158%, 218% and over 392%, respectively.
Regarding `O=C(NCCCl)Nc1ccc(N(CCI)CCI)cc1`, the “T/C (%)” value in assay [1] (100 mg/Kg) is recorded as over 361%; in the assay on P388 leukemia (12.5 mg/Kg), 167%; in the assay on P388 leukemia (50 mg/Kg), 151%.
Take `O=C(NCCBr)Nc1ccc(N(CCI)CCI)cc1`: the “T/C (%)” value in assay [1] (75 mg/Kg) is on record as over 361%; in the assay with P388 leukemia (25 mg/Kg) it was 195%; in the assay with P388 leukemia (50 mg/Kg), 142%.
Consider `O=C(NCCBr)Nc1ccc(N(CCBr)CCBr)cc1`, for which the “T/C (%)” value in assay [1] (100 mg/Kg) is given as over 361%; with P388 leukemia (6 mg/Kg) it was 213%; in the assay on P388 leukemia (50 mg/Kg), 167%; in assay [2] (50 mg/Kg), over 392%.
On to `O=C(NCCF)Nc1ccc(N(CCCl)CCCl)cc1`, for which the “T/C (%)” value is given as 135% in the assay on P388 leukemia (25 mg/Kg) and 294% in assay [2] (25 mg/Kg).
For the compound `O=C(NCCCl)Nc1ccc(N(CCBr)CCBr)cc1`, the “T/C (%)” value in the assay with P388 leukemia (3 mg/Kg) turned out to be 196%; in the assay on P388 leukemia (50 mg/Kg), 186%; in assay [2] (50 mg/Kg), 294%.
Take `O=C(NCCF)Nc1cccc(N(CCBr)CCBr)c1`: the “T/C (%)” value in assay [2] (25 mg/Kg) came out at 229%.

Broadly, the T/C is the ratio of treated to control.
